Test results reported in patent publication US20210222225A1, “Medium for Disk Diffusion Method to Evaluate Antibiotic Sensitivity” (priority 2018, published 2021).

System: 63-GN clinical isolates
Assay: Match of colistin disk diffusion with MIC (broth micro-dilution)
Assay type: cell-based

colistin
resistance match rate between MIC and disk diffusion (P. aeruginosa and Acinetobacter strains, FIGS. 7A to 7F): 100%
match rate with MIC (P. aeruginosa, medium with agar 5.1 g/L and protamine 100 μg/ml): 100%
match rate between MIC and disk diffusion, colistin-susceptible strain (colistin-susceptible strain, FIGS. 7A to 7F): approximately 97.8%
